Values of other authors, collected in patent US20220213047A1, “CARBONIC ANHYDRASE INHIBITORS FOR TREATMENT OF NEISSERIA GONORRHOEAE INFECTION” (Purdue Research Foundation, priority 2021, published 2022).

Target: hCAII (Homo sapiens, UniProt P00918)
Details: read-out: Kd of tracer against hCAII; same tracer; cited from earlier work

## COc1ccc2cc(C(=O)Nc3nnc(S(N)(=O)=O)s3)c(=O)oc2c1
  Kd: 0.065 µM
